Results of unrelated studies side by side (data: NIAID ChemDB).

Common to all: cytotoxicity tests; cells: H9; read by: MTT; measure: CC50

Rows are shuffled and stem from different studies. CCn: concentration that lowers growth or viability of the cells by n%.

{"SMILES": "Nc1ncn([C@@H]2O[C@H](CO)[C@@H](O)[C@H]2O)c(=O)n1", "result": "101.7 µM"}
{"SMILES": "Nc1nc2c(ncn2[C@@H]2O[C@H](COP(=O)(O)O)[C@@H](O)[C@H]2O)c(=O)o1", "result": ">500 µg/mL"}
{"SMILES": "CC(C)=CCC/C(C)=C/C[N+]1(C/C=C(\\C)CCC=C(C)C)CCc2cc(O)c(O)cc2[C@H]1C", "result": "10.68 µg/mL"}
{"SMILES": "Cc1cn([C@H]2C[C@H](N=[N+]=[N-])[C@@H](CO)O2)c(=O)[nH]c1=O", "result": ">0.08 µg/mL"}
{"SMILES": "CCCCCCCCCCCCCCCCCCCCCCOCC(C)(COCCCCCCCCCCCCCCCCCCCCCC)CO[C@]1(C(=O)O)C[C@H](OS(=O)(=O)O)[C@@H](NC(C)=O)[C@H]([C@H](OS(=O)(=O)O)[C@@H](COS(=O)(=O)O)OS(=O)(=O)O)O1", "result": ">100 µM"}
{"SMILES": "O=C(O)C(=O)/C=C(\\O)c1cc(/C(O)=C/C(=O)C(=O)O)c2ccccc2n1", "result": ">25 µM"}
{"SMILES": "CCCCCCCCCCCCCCOC[C@H](CS[C@]1(C(=O)O)C[C@H](OS(=O)(=O)O)[C@@H](NC(C)=O)[C@H]([C@H](OS(=O)(=O)O)[C@@H](COS(=O)(=O)O)OS(=O)(=O)O)O1)OCCCCCCCCCCCCCC", "result": "~200 µM"}
{"SMILES": "CC(C)=CCC/C(C)=C/CN1CCc2cc(O)c(O)cc2[C@H]1C", "result": "20.23 µg/mL"}
{"SMILES": "CN[C@@H]1[C@@H](O)[C@@H](O[C@@H]2[C@@H](O)[C@H](O[C@H]3O[C@H]([C@@H](C)O)[C@@H](O)[C@H](O)[C@H]3N)[C@@H](N)C[C@H]2N)OC[C@]1(C)O", "result": "~200 µM"}
{"SMILES": "CCCCCCCCCCCCCCOC[C@H](CO[C@]1(C(=O)O)C[C@H](OS(=O)(=O)O)[C@@H](NC(C)=O)[C@H]([C@H](OS(=O)(=O)O)[C@@H](COS(=O)(=O)O)OS(=O)(=O)O)O1)OCCCCCCCCCCCCCC", "result": ">100 µM"}
{"SMILES": "Nc1nc2c(ncn2[C@@H]2O[C@H](CO)[C@@H](O)[C@H]2O)c(=O)o1", "result": ">100 µg/mL"}
{"SMILES": "Nc1nc2c(ncn2[C@H]2CC[C@@H](CO)O2)c(=O)o1", "result": ">500 µg/mL"}
{"SMILES": "CC(=O)N[C@H]1[C@H]([C@H](OS(=O)(=O)O)[C@@H](COS(=O)(=O)O)OS(=O)(=O)O)O[C@@](OCCCCCCCCCCCCCCCC(=O)O)(C(=O)O)C[C@@H]1OS(=O)(=O)O", "result": ">200 µM"}
{"SMILES": "Nc1nc2c(ncn2[C@H]2C=C[C@@H](CO)C2)c(=O)o1", "result": ">500 µg/mL"}
{"SMILES": "Cc1cn([C@H]2C[C@H](N=[N+]=[N-])[C@@H](CO)O2)c(=O)[nH]c1=O", "result": ">100 µM"}

The first 2 rows once more:

SMILES | result
Nc1ncn([C@@H]2O[C@H](CO)[C@@H](O)[C@H]2O)c(=O)n1 | 101.7 µM
Nc1nc2c(ncn2[C@@H]2O[C@H](COP(=O)(O)O)[C@@H](O)[C@H]2O)c(=O)o1 | >500 µg/mL